A mixed list of measured activities; the numbers were collected in NIAID ChemDB.

All rows: whole-cell or culture tests; agent: Candida albicans; endpoint: MIC

Lines come from different laboratories, so protocols vary. Blank or dashed fields: not listed here. Two numbers with a dash give a range or band.

structure | strain or isolate | value
CC(C)c1cc2c(cc1O)[C@@]1(C)CCCC(C)(C)C1=C(O)C2=O |  | >250 µg/mL
CC(C)=CCC[C@H](C)c1ccc(C)cc1 |  | >50 µg/mL
CCOC(=O)C1C(c2ccccc2)CC(c2ccccc2)=CC12NCCN2 |  | 100 µg/mL
Cn1c(-c2ccc3c(c2)C(C)(C)CCC3(C)C)nc2cc(C(=O)O)ccc21 |  | 50 µg/mL
C[C@H]1[C@H](O)[C@@H](C)/C=C/C=C/C=C/C=C/C=C/C=C/C=C/[C@H](O[C@@H]2O[C@H](C)[C@@H](O)[C@H](N)[C@@H]2O)C[C@@H]2O[C@](O)(C[C@@H](O)C[C@@H](O)CC[C@H](O)[C@@H](O)C[C@@H](O)CC(=O)O[C@H]1C)C[C@H](O)[C@H]2C(=O)O | MY1055 | 0.3 µg/mL
O=[N+]([O-])c1cccc2c1CCc1[se]nnc1-2 |  | 12.5 µg/mL
CN[C@H]1[C@@H](O[C@@H]2O[C@H](CO)[C@@H](O)[C@H](O)[C@H]2O)[C@H](O)[C@@H](O[C@H]2c3cc(C)c(C(=O)N[C@H](C)C(=O)OC)c(O)c3-c3c(cc4c(c3O)C(=O)c3cc(OC)cc(O)c3C4=O)[C@@H]2O)O[C@H]1C | A9540 | 25 µg/mL
CCN1C2=NC[C@@H](C3CCCCC3)N2C[C@@H]1Cc1ccccc1 | ATCC 10231 | >64 µg/mL
COC(=O)C1=CC[C@@]23CC[C@@H]([C@@](C)(/C=C/C=C(\C)C(=O)O)OC2=O)[C@@]3(O)CC1 | ATCC 10231 | 1.56 µg/mL
CCN1C2=NC[C@H](C3CCCCC3)N2C[C@@H]1Cc1ccccc1 | ATCC 10231 | >64 µg/mL
CCN(CC)c1cc(N(CC)CC)c2ccc(C)nc2c1O |  | 10 µg/mL
c1ccc2c(c1)CCc1[se]nnc1-2 |  | 12.5 µg/mL
COc1cc2cc3c(c(-c4ccc5c(c4)OCO5)c2cc1OC)C(=O)OC3O |  | ≥8 µg/mL
C1CCC([C@H]2CN3C(=NC[C@@H]3C3CCCCC3)N2CCC23CC4CC(CC(C4)C2)C3)CC1 | ATCC 10231 | 20–32 µg/mL
CCN1C[C@]2(COC)CC[C@H](OC)[C@]34C1[C@@](O)([C@@H](OC)[C@H]23)[C@@]1(O)C[C@H](OC)C2C[C@@H]4[C@@H]1[C@H]2OC(C)=O |  | 4 µg/mL
COc1cc(OC)c2ccc(=O)oc2c1 |  | 30 µg/mL
CC(C)[C@@H](C)/C=C/[C@@H](C)[C@H]1CCC2=C3[C@@H](O)C4OC45C[C@@H](OC(=O)[C@@H](N)[C@@H](OS(=O)(=O)O)C(C)C)CC[C@]5(C)[C@H]3CC[C@@]21C(=O)O | MY2301 | 2 µg/mL
CCOC(=O)C1C(c2ccc(OC)cc2)CC(c2ccccc2)=CC12NCCN2 |  | 12.5 µg/mL
CC(C)(C)C1CCC(CN2C3=NC[C@@H](C4CCCCC4)N3C[C@@H]2CC2CCCCC2)CC1 | ATCC 10231 | 5–8 µg/mL
C[C@H](CCC(=O)NCCNCCNC(=O)CC[C@@H](C)[C@H]1CCC2C3CCC4C[C@H](O)CC[C@]4(C)C3C[C@H](C)[C@@]21O)[C@H]1CCC2C3CCC4C[C@H](O)CC[C@]4(C)C3C[C@H](C)[C@@]21O | Isolate 4 | 0.012 µM
CC(C/C=C/C=C/CC/C=C\C=C\CCC(C)(C)C)C(O)C(O)C(O)C(O)C(O)C1OC(=O)C(O)C1O | ATCC 38247 | 1.6 µg/mL
C[C@@H]1O[C@@H](O[C@H]2[C@H](O[C@H]3CC[C@@]4(C)[C@@H](CC[C@]5(C)[C@@H]4CC=C4[C@@H]6CC(C)(C)CC[C@]6(C(=O)O)CC[C@]45C)[C@]3(C)CO)OC[C@H](O)[C@@H]2O)[C@H](O)[C@H](O)[C@H]1O | KCTC 1940 | 25 µg/mL
CCOC(=O)C1C(c2ccc(F)cc2)CC(c2ccccc2)=CC12NCCN2 |  | 200 µg/mL
COC(=O)[C@]1(C)CCC[C@]2(C)c3ccc(C(C)C)cc3-c3[nH]c4ccccc4c3C12 | CGMCC 2.2086 | >100 µg/mL
CCN1C2=NC[C@H](Cc3ccccc3)N2C[C@@H]1C1CCCCC1 | ATCC 10231 | >64 µg/mL
CCOC(=O)C1C(c2ccccc2)CC(c2ccc(OC)cc2)=CC12NCCN2 | CaCYP51 | 12.5 µg/mL
CN[C@@H]1[C@H](O[C@@H]2OC[C@@H](O)[C@H](O)[C@H]2O)[C@@H](O)[C@H](O[C@H]2c3cc(C)c(C(=O)N[C@H](C)C(=O)O)c(O)c3-c3c(cc4c(c3O)C(=O)c3cc(OC)cc(O)c3C4=O)[C@@H]2O)O[C@@H]1C | A9540 | 6.3 µg/mL
CC(C)(C)C1CCC(CN2C3=NC[C@@H](C4CCCCC4)N3C[C@H]2C2CCCCC2)CC1 | ATCC 10231 | >64 µg/mL
C[C@@H]1O[C@@H](OC2[C@H](O[C@H]3CC[C@@]4(C)[C@@H](CC[C@]5(C)[C@@H]4CC=C4[C@@H]6CC(C)(C)CC[C@]6(C(=O)O[C@@H]6O[C@H](COC7O[C@H](CO)[C@@H](O[C@@H]8O[C@@H](C)[C@H](O)[C@@H](O)[C@H]8O)[C@H](O)[C@H]7O)[C@@H](O)[C@H](O)[C@H]6O)CC[C@]45C)[C@]3(C)CO)OC[C@H](O)[C@@H]2O)[C@H](O)[C@H](O)[C@H]1O | KCTC 1940 | >200 µg/mL
Cc1ccc2c(N3CCNCC3)cc(N3CCNCC3)c(O)c2n1 |  | 2.51 µg/mL
c1ccc(C[C@H]2CN=C3N(CCC45CC6CC(CC(C6)C4)C5)[C@@H](Cc4ccccc4)CN32)cc1 | ATCC 10231 | 32–64 µg/mL
CCC(C)CC(C)CCCCCCCCC(=O)N[C@H]1C[C@@H](O)[C@H](NCCN)NC(=O)[C@@H]2[C@@H](O)CCN2C(=O)[C@H]([C@H](O)CCN)NC(=O)[C@H]([C@H](O)[C@@H](O)c2ccc(O)cc2)NC(=O)[C@@H]2C[C@@H](O)CN2C(=O)[C@H]([C@@H](C)O)NC1=O | MY1055 | 0.25 µg/mL
COc1ccc2ccc(=O)oc2c1 |  | 40 µg/mL
COC(=O)[C@]1(C)CCC[C@]2(C)c3ccc(C(C)C)cc3-c3[nH]c4c(OC)cccc4c3C12 | CGMCC 2.2086 | >100 µg/mL
CCOC(=O)C1C(c2ccc(C)cc2)CC(c2ccc(Cl)cc2)=CC12NCCN2 | CaCYP51 | 25 µg/mL
COc1ccc(OC)c2c1CCc1snnc1-2 |  | 12.5 µg/mL
COc1cc(O)c2c(c1)C(=O)c1c(cc3c(c1O)-c1c(cc(C)c(C(=O)NC(C)C(=O)O)c1O)[C@H](OC1OCC(O)C(O)C1O)[C@H]3O)C2=O | A9540 | 25 µg/mL
COC(=O)[C@]1(C)CCC[C@]2(C)c3ccc(C(C)C)cc3-c3[nH]c4ccc(Br)cc4c3C12 | CGMCC 2.2086 | >100 µg/mL
CCC(C)n1ncn(-c2ccc(N3CCN(c4ccc(OC[C@H]5CO[C@](Cn6cncn6)(c6ccc(Cl)cc6Cl)O5)cc4)CC3)cc2)c1=O | Isogenic isolate 3 MDR1 (25X) | 0.015 µg/mL
CCOC(=O)C1C(c2ccc(C)cc2)CC(c2ccccc2)=CC12NCCN2 | CaCYP51 | 12.5 µg/mL
CCC(C)/C=C(\C)C(=O)CC1(O)CC(=O)c2c(O)cc(O)cc2C1 |  | 40 µg/mL
CCC(C)CC(C)CCCCCCCCC(=O)N[C@H]1C[C@@H](O)[C@@H](OCCN)NC(=O)[C@@H]2C[C@@H](O)CN2C(=O)[C@H]([C@H](O)CCN)NC(=O)[C@H]([C@H](O)[C@@H](O)c2ccc(O)cc2)NC(=O)[C@@H]2C[C@@H](O)CN2C(=O)[C@H]([C@@H](C)O)NC1=O | MY2301 | 0.25 µg/mL
CC(C)=CCC[C@H](C)C12CCC13C=CC3(C)OO2 |  | 30 µg/mL

Repeating the final 6 entries:

structure,strain or isolate,value
COC(=O)[C@]1(C)CCC[C@]2(C)c3ccc(C(C)C)cc3-c3[nH]c4ccc(Br)cc4c3C12,CGMCC 2.2086,>100 µg/mL
CCC(C)n1ncn(-c2ccc(N3CCN(c4ccc(OC[C@H]5CO[C@](Cn6cncn6)(c6ccc(Cl)cc6Cl)O5)cc4)CC3)cc2)c1=O,Isogenic isolate 3 MDR1 (25X),0.015 µg/mL
CCOC(=O)C1C(c2ccc(C)cc2)CC(c2ccccc2)=CC12NCCN2,CaCYP51,12.5 µg/mL
CCC(C)/C=C(\C)C(=O)CC1(O)CC(=O)c2c(O)cc(O)cc2C1,,40 µg/mL
CCC(C)CC(C)CCCCCCCCC(=O)N[C@H]1C[C@@H](O)[C@@H](OCCN)NC(=O)[C@@H]2C[C@@H](O)CN2C(=O)[C@H]([C@H](O)CCN)NC(=O)[C@H]([C@H](O)[C@@H](O)c2ccc(O)cc2)NC(=O)[C@@H]2C[C@@H](O)CN2C(=O)[C@H]([C@@H](C)O)NC1=O,MY2301,0.25 µg/mL
CC(C)=CCC[C@H](C)C12CCC13C=CC3(C)OO2,,30 µg/mL